Compound potency records, mixed from different reports. Data source: NIAID ChemDB in PubChem.

Common to all: growth or infection tests

Lines come from different laboratories, so protocols vary. Inhibition is in % at the dose shown (toxicity tests: loss of growth or viability). An empty or dashed field is not shown. MIC50, MIC90 and the like: level of inhibition, or share of isolates inhibited. Two numbers with a dash give a range or band. ECn is the concentration giving n% inhibition of infection, replication or growth.

compound,measure,strain,species,dose,cell line,method,value
Cc1nc(NCCCCNc2ccnc3cc(Cl)ccc23)nc(-c2ccccc2)c1C(=O)OC(C)C,MIC99,23/10993,Cryptococcus gattii,-,-,-,5.7 µg/mL
O=c1[nH]c(=O)n([C@H]2C[C@H](O)[C@@H](CO)O2)cc1Br,inhibition,-,Murine polyoma virus,126.8 µg/mL,ME,hybridisation,91.9%
CCCCCCCCCCCC[N+](C)(C)COC1CCCCC1,MBC,ATCC33592,Staphylococcus aureus,-,-,-,13.8 µM
CCC(CC)O[C@@H]1C=C(C(=O)O)C[C@H](N)[C@H]1NC(C)=O,EC50,H1N1 isolate C31D,Influenza A virus,-,MDCK,plaque count,0.08 µg/mL
CN(C)c1cc(NC(=O)CNC(C)(C)C)c(O)c2c1C[C@H]1C[C@H]3[C@H](N(C)C)C(=O)C(C(N)=O)=C(O)[C@@]3(O)C(=O)C1=C2O,MIC50,20 strains (vancomycin-susceptible),Enterococcus faecium,-,-,-,0.12 µg/mL
CN[C@H]1CC[C@@H](c2ccc(Cl)c(Cl)c2)c2ccccc21,MFC,C23,Cryptococcus neoformans,-,-,broth dilution,8 µg/mL
O=C(O)CP(=O)(O)O,EC50,Oka PFA-resistant/B,Varicella zoster virus,-,HEL,cytopathic effect,321.3 µM
CCCCCCCCCCCC[N+](C)(C)COCC,MBC,ATCC33592,Staphylococcus aureus,-,-,-,9.74 µM
COc1ccccc1S(=O)(=O)NC(=O)c1ccc(NC(=O)CCCCCCC(=O)NO)cc1,MIC50,-,Toxoplasma gondii,-,Human foreskin fibroblasts,-,>0.25 µM
CCOc1ccccc1CCNC(=S)Nc1nccs1,inhibition,-,HIV-2,1 µg/mL,MT-4,cytopathic effect / XTT,100%
Cc1n[nH]nc1-c1ccc(-n2c(=O)c3c(n4ncc(CC(C)C)c24)CN(C(=O)c2ccc(Br)c(Cl)c2)[C@H](C)C3)cc1,EC50,-,Hepatitis B virus,-,HepG2.117,luminescence,≤0.05 µM
CCCCCCCCCCCCSC[N+](C)(C)CCCCCCCCCCCC,MBC,ATCC33592,Staphylococcus aureus,-,-,-,53.8 µM
Nc1nc2c(ncn2COC2COP(=O)(O)OC2)c(=O)[nH]1,EC50,Lymphotropic,Guinea pig herpesvirus,-,GPE,virus yield,<0.9 µg/mL
CNC(=O)c1ccc(-n2c(=O)c3c(n4ncc(CC(C)C)c24)CN(C(=O)c2ccc(Cl)c(C(F)(F)F)c2)[C@@H](C)C3)cc1,EC50,-,Hepatitis B virus,-,HepG2.117,luminescence,0.05–0.5 µM
CCCCCCCCCOC[N+](C)(C)CCCCCCCC,MBC,ATCC33592,Staphylococcus aureus,-,-,-,143 µM
O=C(NCCc1ccccc1)Nc1nc2ccc(F)cc2s1,inhibition,-,HIV-2,100 µg/mL,MT-4,RT activity,97%
O=C(NC(=O)c1ccccc1O)Nc1ccc(OC(F)(F)F)cc1,MIC50,-,Toxoplasma gondii,-,Human foreskin fibroblasts,-,>0.25 µM
CCOC(=O)c1c(C)nc(NCCCCNc2ccnc3cc(Cl)ccc23)nc1-c1ccccc1,MIC99,F-10,Cryptococcus neoformans,-,-,-,4 µg/mL
Nc1nc2c(ncn2CCC(CO)CO)c(=O)[nH]1,EC50,Clinical isolate VZV-31,Varicella zoster virus,-,HEL,cytopathic effect,2 µM
Nc1nc2c(ncn2COC(CO)CO)c(=O)[nH]1,EC50,C8301,Human cytomegalovirus,-,MRC-5,hybridisation,0.25 µM
O=C(NC(=O)c1ccccc1O)c1cccc(CCl)c1,MIC50,-,Toxoplasma gondii,-,Human foreskin fibroblasts,-,>1 µM
O=C(NCCc1ccccc1)Nc1nc2ccc(Cl)cc2s1,inhibition,-,HIV-2,0.1 µg/mL,MT-4,RT activity,1%
CS(=O)(=O)c1ccc(C(=O)NC(=O)c2ccccc2O)cc1,MIC50,-,Toxoplasma gondii,-,Human foreskin fibroblasts,-,>0.25 µM
Oc1ccccc1N=Cc1ccc(F)cc1,MIC,96806,Cryptococcus neoformans,-,-,broth dilution,5.7 µg/mL
C=C(C)C1COc2cc(OC)c3c(c2C1)OC(c1ccccc1)=CC3OC,inhibition,Type 2/Mexican isolate,Dengue virus,6 µM,LLC-MK2,plaque count,25.8%
COC(=O)CCC(=O)Nc1ccc(C(=O)NC(=O)c2ccccc2O)cc1,MIC50,-,Toxoplasma gondii,-,Human foreskin fibroblasts,-,>1 µM
CC(C)Nc1nc2cc(Cl)c(Cl)cc2n1[C@H]1O[C@@H](CO)[C@H](O)[C@@H]1O,EC50,9330REC5 (HIS520GLU),Human cytomegalovirus,-,MRC-5,hybridisation,0.13 µM
CN1C(=O)[C@@H](Cc2ccccc2)NC1=S,inhibition,-,HIV-2,100 µg/mL,MT-4,RT activity,98%
Oc1cccc(C=Nc2ccccc2O)c1,MIC99,ATCC 24067,Cryptococcus neoformans,-,-,-,2.8 µg/mL
Cn1cc(C(=O)NCc2ccc(Cl)cc2)c(=O)c2cc(CN3CCOCC3)ccc21,inhibition,RA varicella isolate,Varicella zoster virus,1.8 µM,HFF,plaque count,90%
Nc1ncnc2c1ncn2C[C@@H](CO)OCP(=O)(O)O,EC50,Oka CF1742-resistant,Varicella zoster virus,-,HEL,cytopathic effect,0.025 µM
O=C(O)c1cc2c(s1)-c1ccccc1N(C(=O)c1ccc(NC(=O)c3ccccc3-c3ccccc3)cc1)CC2,EC50,LONG,Respiratory syncytial virus,-,HeLa,plaque count,>25 µM
CCCCCCCCCCCC[N+](C)(C)CSCCCCC,MBC,ATCC33592,Staphylococcus aureus,-,-,-,13.7 µM
CC(C)Cc1cnn2c3c(c(=O)n(-c4ccc(-c5cnnn5C)cc4)c12)C[C@@H](C)N(C(=O)c1ccc(Br)c(C(F)(F)F)c1)C3,EC50,-,Hepatitis B virus,-,HepG2.117,luminescence,≤0.05 µM
O=C(NNC(=O)c1ccccc1O)c1ccc2ccccc2c1,MIC50,-,Toxoplasma gondii,-,Human foreskin fibroblasts,-,>0.25 µM
CCCCCCCCCCCC[N+](C)(C)COC1CCCC1,MBC,ATCC33592,Staphylococcus aureus,-,-,-,14.4 µM
O=c1[nH]c(=O)n([C@@H]2O[C@H](CO)[C@@H](O)[C@@H]2O)cc1/C=C/Br,EC50,Oka penciclovir-resistant/B,Varicella zoster virus,-,HEL,cytopathic effect,0.0005 µM
Cc1nc(NC(=O)NCCc2ccccc2)sc1C,inhibition,-,HIV-2,1 µg/mL,MT-4,cytopathic effect / XTT,100%
O=C(NC1CC1)c1cc2c(s1)-c1ccccc1N(C(=O)c1ccc(NC(=O)c3ccccc3-c3ccccc3)cc1)CC2,EC50,LONG WILD TYPE,Respiratory syncytial virus,-,HeLa,plaque count,0.2 µM
C=CCc1ccc(O)c(OC)c1,MIC90,3147,Candida glabrata,-,-,turbidity,475 µg/mL
O=C(O)P(=O)(O)O,EC50,Clinical isolate VZV-21,Varicella zoster virus,-,HEL,cytopathic effect,43.2 µM
CCCCCCCCCCCCCCCCCCCCCCOCC(C)(COCCCCCCCCCCCCCCCCCCCCCC)CO[C@]1(C(=O)O)C[C@H](OS(=O)(=O)O)[C@@H](NC(C)=O)[C@H]([C@H](OS(=O)(=O)O)[C@@H](COS(=O)(=O)O)OS(=O)(=O)O)O1,EC50,SA11 (serotype 3),Simian rotavirus,-,MA-104,plaque count,>100 µg/mL
OC[C@H]1O[C@@H](n2c(Cl)nc3cc(Cl)c(Cl)cc32)[C@H](O)[C@@H]1O,EC50,TOWNE,Human cytomegalovirus,-,-,virus yield,<1.1 µM
O=C(O)c1cc(-n2cccc2)ccc1Cl,EC90,93IN101 R5 CLADE C,HIV-1,-,PBMC/5.25M7,luciferase / cell fusion,142 µM
O=C1[C@@H](Cc2ccccc2)NC(=S)N1Cc1ccccc1,inhibition,-,HIV-2,100 µg/mL,MT-4,RT activity,98%
CCCCCCCCCCCC[N+](C)(C)COC(C)C,MBC,ATCC33592,Staphylococcus aureus,-,-,-,18.6 µM
CC(=O)N[C@H]1C[C@@H](n2cnc3c(N)ncnc32)[C@H](O)[C@@H]1O,EC50,-,Punta Toro virus,-,HFF,-,>100 µg/mL
O=C(NC(=O)c1ccccc1O)c1ccc(NC(=O)c2ccccc2C(=O)O)cc1,MIC50,-,Toxoplasma gondii,-,Human foreskin fibroblasts,-,>1 µM
Cc1cc(CCCOc2c(C)cc(-c3noc(C(F)(F)F)n3)cc2C)on1,EC50,Isolate 36,Rhinovirus,-,OHIO HELA-I,cytopathic effect / visual reading,0.14 µg/mL

The last 7 rows once more:

compound	measure	strain	species	dose	cell line	method	value
OC[C@H]1O[C@@H](n2c(Cl)nc3cc(Cl)c(Cl)cc32)[C@H](O)[C@@H]1O	EC50	TOWNE	Human cytomegalovirus	-	-	virus yield	<1.1 µM
O=C(O)c1cc(-n2cccc2)ccc1Cl	EC90	93IN101 R5 CLADE C	HIV-1	-	PBMC/5.25M7	luciferase / cell fusion	142 µM
O=C1[C@@H](Cc2ccccc2)NC(=S)N1Cc1ccccc1	inhibition	-	HIV-2	100 µg/mL	MT-4	RT activity	98%
CCCCCCCCCCCC[N+](C)(C)COC(C)C	MBC	ATCC33592	Staphylococcus aureus	-	-	-	18.6 µM
CC(=O)N[C@H]1C[C@@H](n2cnc3c(N)ncnc32)[C@H](O)[C@@H]1O	EC50	-	Punta Toro virus	-	HFF	-	>100 µg/mL
O=C(NC(=O)c1ccccc1O)c1ccc(NC(=O)c2ccccc2C(=O)O)cc1	MIC50	-	Toxoplasma gondii	-	Human foreskin fibroblasts	-	>1 µM
Cc1cc(CCCOc2c(C)cc(-c3noc(C(F)(F)F)n3)cc2C)on1	EC50	Isolate 36	Rhinovirus	-	OHIO HELA-I	cytopathic effect / visual reading	0.14 µg/mL